For the assay, the system named is HIV-1 protease site-directed mutants (N88S, L63P, V77I, M46L) in resistance test vector. As to the kind of experiment: Phenotypic susceptibility assay of resistance test vectors with site-directed mutations in PR.

For `CC(C)(C)NC(=O)[C@@H]1C[C@@H]2CCCC[C@@H]2CN1C[C@@H](O)[C@H](Cc1ccccc1)NC(=O)[C@H](CC(N)=O)NC(=O)c1ccc2ccccc2n1` [saquinavir], the “Fold Change vs. Reference” value was 1.24 fold (site-directed mutations L63P, V77I); 1.24 fold (site-directed mutations L63P, V77I, N88S); 1.15 fold (site-directed mutations M46L, L63P, N88S).
